Experimental data taken from US20130017210A1.
Several values for one entry are separate records, joined by “and”; a condition that tells them apart may be missing. Identical values can stand only once.

Target: B. anthracis (anthrax) protective antigen (B. anthracis) (UniProt P13423)

“MS2 single-chain dimer coat protein VLPs displaying no scFv (from pDSP62) (from UniProt P03612 2-130)” was tested, and the OD was 0.267 OD and 0.232 OD.
